Measured values from several laboratories, pooled; numbers as filed in NIAID ChemDB.

All rows: tests in culture; organism: HIV-1; read-out: inhibition

An empty or dashed field is not shown.

smiles	strain	changes	cell line	read by	setting	tested at	result
COc1cccc2c(C(=O)C(=O)N3CCN(C(=O)c4ccccn4)C[C@H]3C)c[nH]c12	-	-	HeLa + HELA CD4+/CCR5	luciferase	-	10 µM	>98%
CCCCCCCCCCCCCCCCOP(=O)(OCCO[C@@H]1O[C@H](CO)[C@@H](O)[C@H](O)[C@@H]1O)OC[C@H]1O[C@@H](n2cc(C)c(=O)[nH]c2=O)C[C@@H]1N=[N+]=[N-]	LAV-Bru	-	PBL	RT activity	7 d	1 µM	0%
S=C(NCCc1ccccc1)N1CCCc2ccccc21	-	-	MT-4	cytopathic effect / XTT	-	10 µg/mL	0%
Cc1ccc(-c2ccc3c(c2)C=C(C(=O)Nc2ccc(C[N+](C)(C)C4CCOCC4)cc2)CCC3)cc1	TB7 CLADE C	-	PBMC	p24	-	1 µM	100%
C[C@H]1CN(C(=O)c2ccccc2)CCN1C(=O)C(=O)c1c[nH]c2cc(Cl)c(Cl)cc12	-	-	HeLa + HELA CD4+/CCR5	luciferase	-	10 µM	89%
O=C(NCCc1ccccc1)NCc1ccoc1	-	-	MT-4	cytopathic effect / XTT	-	1 µg/mL	10%
CC(C)[C@H](NC(=O)[C@H](CO)NC(=O)[C@@H](N)CSSCC(=O)O)C(=O)N[C@H](C(=O)N[C@@H](CSSCC(=O)O)C(=O)NCC(=O)O)[C@@H](C)O	IIIB	-	PBMC(PHA STIM.) + PBMC	p24	-	0.66 µM	58%
Cc1nc(NC(=O)NCCc2ccccc2)sc1C	-	-	MT-4	RT activity	-	100 µg/mL	94%
COC(=O)c1cccc2c(C(=O)C(=O)N3CCN(C(=O)c4ccccc4)C(C(C)(C)C)C3)c[nH]c12	-	-	HeLa + HELA CD4+/CCR5	luciferase	-	10 µM	87%
CC1(C)[C@@H](O[C@H]2O[C@H](C(=O)O)[C@@H](O)[C@H](O)[C@H]2O[C@@H]2O[C@H](C(=O)O)[C@@H](O)[C@H](O)[C@H]2O)CC[C@]2(C)[C@H]3C(=O)C=C4[C@@H]5C[C@@](C)(C(=O)O)CC[C@]5(C)CC[C@@]4(C)[C@]3(C)CC[C@@H]12	IIIB	-	MOLT-4	RT activity	3 d	1200 µM	0%
CCCC1CN(C(=O)C(=O)c2c[nH]c3c(C(=O)OC)cccc23)CCN1C(=O)c1ccccc1	-	-	HeLa + HELA CD4+/CCR5	luciferase	-	10 µM	>98%
NCCSSCCN	BaL	-	Macrophage	p24	-	10 µM	37%
C=C(C)[C@@H]1CC[C@]2(C(=O)NCCCCCCCC(=O)N[C@@H](CC(C)C)[C@@H](O)CC(=O)O)CC[C@]3(C)[C@H](CC[C@@H]4[C@@]5(C)CC[C@H](O)C(C)(C)[C@@H]5CC[C@]43C)[C@@H]12	LAI	GP41-I69V	HeLa P4 + HeLa	syncytia	-	10 µM	>99%
N=C1Sc2ccccc2C2=NCCCN12	92TH006	-	TZM-bl	β-galactosidase	-	7.8 µM	90%
O=C(C(=O)N1CCN(C(=O)c2ccccc2)CC1)c1c[nH]c2c(Br)ccc(OC(F)(F)F)c12	-	-	HeLa + HELA CD4+/CCR5	luciferase	-	10 µM	>98%
CN1C(=O)[C@@H](Cc2ccccc2)NC1=S	-	-	MT-4	cytopathic effect / XTT	-	1 µg/mL	0%
O=C(C(=O)N1CCN(C(=O)c2ccc(Br)cc2S)CC1)c1c[nH]c2cccc(Cl)c12	-	-	HeLa + HELA CD4+/CCR5	luciferase	-	10 µM	>98%
CCCCN1C(=O)[C@@H](Cc2ccccc2)NC1=S	-	-	MT-4	cytopathic effect / XTT	-	1 µg/mL	0–5%
C[C@@H]1CN(C(=O)c2ccc(Br)o2)CCN1C(=O)C(=O)c1c[nH]c2c(F)ccc(F)c12	-	-	HeLa + HELA CD4+/CCR5	luciferase	-	10 µM	>98%
Cc1cn([C@H]2C[C@H](N=[N+]=[N-])[C@@H](COP(=O)(O)OCCO[C@H]3O[C@H](CO)[C@@H](O)[C@H](O)[C@@H]3O)O2)c(=O)[nH]c1=O	LAV-Bru	-	CEM	RT activity	15 d	0.2 µM	86%
COC(=O)c1cccc2c(C(=O)C(=O)N3CCN(C(=O)c4ccccc4)C(CC(C)C)C3)c[nH]c12	-	-	HeLa + HELA CD4+/CCR5	luciferase	-	10 µM	77%
C[C@H]1[C@H](O)[C@@H](C)/C=C/C=C/C=C/C=C/C=C/C=C/C=C/[C@H](O[C@@H]2O[C@H](C)[C@@H](O)[C@H](N)[C@@H]2O)C[C@@H]2O[C@](O)(C[C@@H](O)C[C@@H](O)CC[C@H](O)[C@@H](O)C[C@@H](O)CC(=O)O[C@H]1C)C[C@H](O)[C@H]2C(=O)O	92BR014 CLADE B X4/R5 (SI)	-	PBMC	p24 / RT activity	-	9.2 µM	90%
Cc1ccnc(NC(=O)NCCc2ccccc2)n1	-	-	MT-4	cytopathic effect / XTT	-	10 µg/mL	64%
CCCCCCCCCCCCCCCCOP(=O)(OC[C@H]1OC(O)[C@@H](O)[C@@H](O)[C@@H]1O)OC[C@H]1O[C@@H](n2cc(C)c(=O)[nH]c2=O)C[C@@H]1N=[N+]=[N-]	LAV-Bru	-	CEM	RT activity	7 d	1 µM	90%
N#Cc1csc(NC(=O)NCCc2ccccc2)n1	-	-	MT-4	cytopathic effect / XTT	-	10 µg/mL	0%
CC(=O)CCC(=O)NCCCOCCOCCCNC(=O)CNC(=O)[C@H](CS)NC(=O)[C@@H](NC(=O)[C@@H](NC(=O)[C@H](CO)NC(=O)[C@@H](N)CS)C(C)C)[C@@H](C)O	IIIB	-	PBMC(PHA STIM.) + PBMC	p24	-	0.132 µM	20%
Cc1cc(C(=O)N2CCN(C(=O)C(=O)c3c[nH]c4c(F)ccc(F)c34)CC2)oc1C	-	-	HeLa + HELA CD4+/CCR5	luciferase	-	10 µM	>98%
O=C(NCCc1ccccc1)Nc1nc2ccccc2s1	-	-	MT-4	RT activity	-	100 µg/mL	95%

Repeating the final 3 entries:

smiles	strain	changes	cell line	read by	setting	tested at	result
CC(=O)CCC(=O)NCCCOCCOCCCNC(=O)CNC(=O)[C@H](CS)NC(=O)[C@@H](NC(=O)[C@@H](NC(=O)[C@H](CO)NC(=O)[C@@H](N)CS)C(C)C)[C@@H](C)O	IIIB	-	PBMC(PHA STIM.) + PBMC	p24	-	0.132 µM	20%
Cc1cc(C(=O)N2CCN(C(=O)C(=O)c3c[nH]c4c(F)ccc(F)c34)CC2)oc1C	-	-	HeLa + HELA CD4+/CCR5	luciferase	-	10 µM	>98%
O=C(NCCc1ccccc1)Nc1nc2ccccc2s1	-	-	MT-4	RT activity	-	100 µg/mL	95%

Neighbouring rows are from separate reports. Two numbers with a dash give a range or band. Percent inhibition refers to the dose given; in toxicity tests it is the harm to the cells.